Measured values from several laboratories, pooled; numbers as filed in NIAID ChemDB.

Common to all: host cell toxicity; cells: K562; measure: CC50

Rows are shuffled and stem from different studies. Blank or dashed fields: not listed here. CCn: concentration that lowers growth or viability of the cells by n%.

{"structure": "O=[N+]([O-])c1cncnc1N1CC[N+]2(CC1)CC[N+]1(CCN(c3ncncc3[N+](=O)[O-])CC1)CC2", "value": ">369.4 µg/mL"}
{"structure": "N#Cc1cnn(Cc2ccccc2)c1/N=c1\\ssnc1Cl", "value": "5 µM"}
{"structure": "CCOC(=O)[C@@]1(C)CC[C@]2(C)CC[C@]3(C)C(=CC(=O)[C@@H]4[C@@]5(C)CC/C(=N\\OCC6CCOCC6)C(C)(C)[C@@H]5CC[C@]43C)[C@@H]2C1", "method": "MTT", "value": "21.28 µM"}
{"structure": "COc1cc([C@@H]2c3cc4c(cc3[C@@H](O[C@@H]3O[C@@H]5CO[C@@H](C)O[C@H]5[C@H](O)[C@H]3O)[C@H]3COC(=O)[C@H]23)OCO4)cc(OC)c1O", "value": "0.3 µg/mL"}
{"structure": "Cn1ncc(C#N)c1/N=c1\\ssnc1Cl", "value": "5 µM"}
{"structure": "Cc1nc(Cl)c([N+](=O)[O-])c(N2CC[N+]3(CC2)CC[N+]2(CCN(c4nc(C)nc(Cl)c4[N+](=O)[O-])CC2)CC3)n1", "value": ">288 µg/mL"}
{"structure": "CCOC(=O)[C@@]1(C)CC[C@]2(C)CC[C@]3(C)C(=CC(=O)[C@@H]4[C@@]5(C)CC/C(=N\\OCc6ccccc6F)C(C)(C)[C@@H]5CC[C@]43C)[C@@H]2C1", "method": "MTT", "value": "20.67 µM"}
{"structure": "O=[N+]([O-])c1c(N2CC[N+]3(CC2)CC[N+]2(CCNCC2)CC3)ncnc1N1CC[N+]2(CC1)CC[N+]1(CCNCC1)CC2", "value": ">232.4 µg/mL"}
{"structure": "CCOC(=O)[C@@]1(C)CC[C@]2(C)CC[C@]3(C)C(=CC(=O)[C@@H]4[C@@]5(C)CC/C(=N\\OCc6ccc(F)cc6)C(C)(C)[C@@H]5CC[C@]43C)[C@@H]2C1", "method": "MTT", "value": "13.26 µM"}
{"structure": "Cc1nc(N2CC[N+]3(CC2)CC[N+]2(CCN(c4nc(C)[nH]c(=O)c4[N+](=O)[O-])CC2)CC3)c([N+](=O)[O-])c(=O)[nH]1", "value": ">331.4 µg/mL"}
{"structure": "CCOC(=O)[C@@]1(C)CC[C@]2(C)CC[C@]3(C)C(=CC(=O)[C@@H]4[C@@]5(C)CC/C(=N\\OCc6ccc7ccccc7c6)C(C)(C)[C@@H]5CC[C@]43C)[C@@H]2C1", "method": "MTT", "value": ">100 µM"}
{"structure": "N#Cc1cnn(-c2ccccc2)c1/N=c1\\ssnc1Cl", "value": "5 µM"}
{"structure": "Cc1cc(O)c2c(c1)C(=O)c1cc(OCC(=O)c3ccccc3)cc(O)c1C2=O", "method": "MTT", "value": ">100 µM"}
{"structure": "N#Cc1cnn(CCCc2ccccc2)c1/N=c1\\ssnc1Cl", "value": "5 µM"}
{"structure": "CCOC(=O)[C@@]1(C)CC[C@]2(C)CC[C@]3(C)C(=CC(=O)[C@@H]4[C@@]5(C)CC/C(=N\\OCc6ccccc6Cl)C(C)(C)[C@@H]5CC[C@]43C)[C@@H]2C1", "method": "MTT", "value": "73.69 µM"}
{"structure": "CN1CCc2c(sc(/N=c3\\ssnc3Cl)c2C#N)C1", "value": "7 µM"}
{"structure": "CCOC(=O)c1cnc(SC)nc1N1CC[N+]2(CC1)CC[N+]1(CCN(c3nc(SC)ncc3C(=O)OCC)CC1)CC2", "value": ">72.5 µg/mL"}
{"structure": "CCOC(=O)[C@@]1(C)CC[C@]2(C)CC[C@]3(C)C(=CC(=O)[C@@H]4[C@@]5(C)CC/C(=N\\OCc6cnc(Cl)s6)C(C)(C)[C@@H]5CC[C@]43C)[C@@H]2C1", "method": "MTT", "value": "8.86 µM"}

A second listing of 2 rows from above:

structure | method | value
N#Cc1cnn(CCCc2ccccc2)c1/N=c1\ssnc1Cl | - | 5 µM
N#Cc1cnn(Cc2ccccc2)c1/N=c1\ssnc1Cl | - | 5 µM